Human monoclonal antibodies against the spike receptor-binding domain (heavy:light variable regions). IC50 against pseudoviruses bearing the spike of naturally observed variants; lower = stronger; >10 µg/ml means not reached at the top dose. No active / inactive call. The stated detection limit is 0.0005 µg/ml; values near or below 0.001 µg/ml lie at the floor of the assay.
B1: BD56-1737 (protein)
chain 1: QVQLVQSGAEVKKPGASVKVSCKASGHTFITYTINWVRQAPGQGLEWMGWISAYDGKTNYAQNFQGRVTMTTDTSTNTAHMELRSLRSDDTAVYYCTFGDYAPHFFDYWGQGTLVTVSS
chain 2: EIVLTQSPGTLSLSPGERATLSCRASQSVSSTFLGWYQQKPGQAPRLLIYGASNRATGIPDRFSGSGSGTEFTLTISRLEPEDFAVYYCQQYGNSPLTFGGGTKVEVK
B2: BD56-1738 (protein)
chain 1: EVQLVESGGGLVQPGGSLRLSCAASGFSFSNYDMHWVRQVTGKGLEWVSTIGTSGDTYYSDSVKGRFTISRENAKNSLYLQMNSLRVGDTAVYYCARVTYDSYNYRFWFDTWGQGTLVTVST
chain 2: DIQMTQSPSSLSASVGDRVTITCRASQSISNYLNWYQQKPGKAPKLLIYAASSLQSGVPSRFSASGSGTKFTLTINSLQPEDYAIYYCQQSYSSPPITFGQGTRLDIK
B3: BD56-1739 (protein)
chain 1: QVQLQESGPGLVKPSQTLSLTCALSGVSISSGTYYWSWIRQPAGKGLEWIGRIYTSGSANYNPSFKSRVTISVDTSKNQISLKLSSVTAADTAVYFCACGGDFRYFDFWGRGTLVTVSS
chain 2: NFMLTQPHSVSESPGKTVTISCSRSSGSIAGNFVQWYQQRPGSAPTTVIYEDNERPSGVPDRFSGSIDSSSNSASLTISGLKTEDEADYYCQSWHSSSVIFGGGTKLTVL
B4: BD56-1741 (protein)
chain 1: EVQLVESGGGLVQPGGSLRLSCAGSGFTFSSYDMHWVRQVTGKGLEWVSTIGSVGDTYYPDSVKGRFTISRENVKNSLYLQMNSLRGGDMAVYYCARGGRSYPRGNWYFDLWGRGTLVSVSS
chain 2: DIQMTQSPSSLSASVGDRITITCRASQSISNFLNWYQQKPGKAPKLLIYGASSLQSGAPSRFSGSGSGTHFTLTISSLQPEDFATYYCQQCYSSPPITFGQGTRLDVK
B5: BD56-1743 (protein)
chain 1: EVQLVESGGGLVQPGGSVRLSCAASGVTVSRNYMTWVRQAPGKGPEWVSVMYSGGSTFYADSVKGRFTVSRHDSKNTLYLQMNSLRQEDTAVYYCARDLVEAGAIDVWGRGTMVIVSS
chain 2: DIQMTQSPSSLSASVGDRVTITCRASEDIANSLAWYQQKPGKAPKLLLYAASTLQSGVPSRFSGSGSGTDYTLTISGLQPEDSATYYCQQYSTTLMYTFGQGTKLEIK
B6: BD56-1745 (protein)
chain 1: QLQVQESGPGLVKPSETLSLTCTVSGGFISSSTYYWGWIRQPPGKGLEWIGSFFYTGTTFYNPSLKSRLTISVDTSKNHFSVRLISVTAADTAIYFCVRHGTRLAVADSFDYWGQGTLVTVSS
chain 2: QSVLTQPPSVSGAPGQRVTLSCTGSSSNIGAGFHVHWYRQLPGTAPKLLIFANNIRPSGVPDRFAGSTSGTSASLAITGLQADDEADYYCQSFDNSLSVWVFGGGTKLTVL
B7: BD56-1753 (protein)
chain 1: EVRLVESGGGLVQPGGSLRLSCAASGFTFSNDDFHWVRQIRGKGLEWVSGIGTSGDTYYSDSVKGRFTVSRENGRHSSYLQMNSLRVGDTAVYYCARGVSRDLWYFFDYWGQGALVTVSS
chain 2: DIQMTQSPSSLSASVGDRVTITCRASQSVNGYLNWYQQKPGKAPKLLIYAASHLQTGVPSRFSGSGSGTDYTLTISSLLPEDFAIYFCQQSYGAPPWTFGPGTKVEIK
B8: BD56-1756 (protein)
chain 1: QVQLQESGPGLVKPSQTLSLTCALSGASISSGTYYWSWIRQPAGKGLEWIGRIYTSGSVNYNSSFKSRVTISVDTSKNQISLRLTSVTAADTAVYFCACGGDFRYFDFWGRGTLVTVSS
chain 2: NFMLTQPHSVSESPGKTVTISCSRSSGSIAGNFVQWYQQRPGSAPTTVIYEDNERPSGVPDRFSGSIDSSSNSASLTISGLKTEDEADYYCQSWHSSSVIFGGGTKLTVL
B9: BD56-1759 (protein)
chain 1: QVTVKEAGPVLVKPTETLTLTCTVSGFSLSNARVGVSWIRQPPGKALEWLAQIFSNDEKSYSTSLKTRLTIFKDTSKSQVVLTMTNMDPADTATYYCALMRVADSSGYYGADWFDPWGQGTLVTVSS
chain 2: DIQMTQSPSSLSASVGDRVTITCRASQSISSYLNWYQQKPGKAPKVLIYAVSRLESGVPSRFSGSGSGTDFTLTISSLQPEDFATYYCQQSYSTLMYTFGQGTKLEMK
B10: COV2-2258 (protein)
chain 1: EVQLVESGGGVVRPGGSLRLSCAASGFTLDDYGLSWVRHAPGKGLEWVSGINWNGGRTAYADSVKGRFTISRDNAKNSLYLQMNSLRAEDTALYHCARARGPSEQYYDLLTGYYDAFDIWGQGTMVTVSS
chain 2: EIVLTQSPGTLSLSPGERATLSCGASQSISSSYLAWYQQKPGQAPRLLIYGASSRAAGIPDRFSGSGSGTDFTLTISRLEPEDFAVYFCQQYGGSLTFGGGTKVEIK
B11: BD56-1761 (protein)
chain 1: QVQLQESGPGLVKPSQTLSLTCSVSGGSISSGTYYWSWVRQPAGKGLEWIGRIYSVGSTNYNASFKSRVTISVDTSKNQFSLRLSSVTAADTAVYYCACGGDFRYFDLWGRGTLITVSS
chain 2: NFMLTQPHSVSASPGKTVTISCTRNSGSIAGNFVQWYQQRPGSAPTTLIYEDNLRPSGVPDRFSGSIDTSSNSASLTISGLKTEDEADYYCQSYDGSNVIFGGGTKLTVL
B12: BD56-1764 (protein)
chain 1: QVQLVQSGAEVRKPGSSVKVSCKASGGPFTTSTFTWVRQAPGQGLEWMGNIIPILGIANYAQKLQDRVTITADKSTSTAYIDLSSLRYEDTAVYFCARETGYSGYLSASYFDYWGQGTPVTISS
chain 2: QSVLTQPPSVSGAPGQRVTISCTGSNSNIGANYDVHWYQQLPGTAPKLLIYSNNNRPSGVPDRFSGSKSDTSASLAITGLQAEDEADYYCQSYDSSLSGAVFGGGTKLTVL

Molecular target: SARS-CoV-2 Omicron BA.1 spike pseudovirus
Experiment: pseudovirus neutralization IC50; higher = weaker neutralization
Procedure: (§1)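 Single-round VSV luciferase pseudovirus mixed with antibody dilutions for 1 h and put on Huh-7 cells for about a day; IC50 from the dose curve.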

Row | Binder | pseudovirus neutralization IC50
1 | B1 | 0.058 µg/mL
2 | B2 | > 10 µg/mL
3 | B3 | 0.0985 µg/mL
4 | B4 | > 10 µg/mL
5 | B5 | 0.00089 µg/mL
6 | B6 | > 10 µg/mL
7 | B7 | > 10 µg/mL
8 | B8 | 0.368 µg/mL
9 | B9 | 1.17 µg/mL
10 | B10 | 3.6 µg/mL
11 | B11 | 0.0868 µg/mL
12 | B12 | 0.179 µg/mL

Molecular target: SARS-CoV-2 Omicron BA.2 spike pseudovirus
Experiment: as above
Procedure: as §1

Row | Binder | pseudovirus neutralization IC50
13 | B1 | 0.0571 µg/mL
14 | B2 | > 10 µg/mL
15 | B3 | 0.0663 µg/mL
16 | B4 | > 10 µg/mL
17 | B5 | 0.000921 µg/mL
18 | B6 | > 10 µg/mL
19 | B7 | > 10 µg/mL
20 | B8 | 0.146 µg/mL
21 | B9 | 0.00384 µg/mL
22 | B10 | 2.78 µg/mL
23 | B11 | 0.0721 µg/mL
24 | B12 | 0.0696 µg/mL

Molecular target: SARS-CoV-2 Omicron BA.2.75 spike pseudovirus
Experiment: as above
Procedure: as §1

Row | Binder | pseudovirus neutralization IC50
25 | B1 | 0.274 µg/mL
26 | B2 | > 10 µg/mL
27 | B3 | 0.0415 µg/mL
28 | B4 | > 10 µg/mL
29 | B5 | 0.00491 µg/mL
30 | B6 | > 10 µg/mL
31 | B7 | > 10 µg/mL
32 | B8 | 0.0492 µg/mL
33 | B9 | 0.169 µg/mL
34 | B10 | 1.87 µg/mL
35 | B11 | 0.126 µg/mL
36 | B12 | 0.12 µg/mL

Molecular target: SARS-CoV-2 Omicron BA.5 spike pseudovirus
Experiment: as above
Procedure: as §1

Row | Binder | pseudovirus neutralization IC50
37 | B1 | 0.32 µg/mL
38 | B2 | > 10 µg/mL
39 | B3 | > 10 µg/mL
40 | B4 | > 10 µg/mL
41 | B5 | 0.0025 µg/mL
42 | B6 | > 10 µg/mL
43 | B7 | > 10 µg/mL
44 | B8 | > 10 µg/mL
45 | B9 | > 10 µg/mL
46 | B10 | 3.79 µg/mL
47 | B11 | > 10 µg/mL
48 | B12 | > 10 µg/mL

Molecular target: SARS-CoV-2 Omicron BQ.1.1 spike pseudovirus
Experiment: as above
Procedure: as §1

Row | Binder | pseudovirus neutralization IC50
49 | B1 | > 10 µg/mL
50 | B2 | > 10 µg/mL
51 | B3 | > 10 µg/mL
52 | B4 | > 10 µg/mL
53 | B5 | 5.75 µg/mL
54 | B6 | > 10 µg/mL
55 | B7 | > 10 µg/mL
56 | B8 | > 10 µg/mL
57 | B9 | > 10 µg/mL
58 | B10 | > 10 µg/mL
59 | B11 | > 10 µg/mL
60 | B12 | > 10 µg/mL

Molecular target: SARS-CoV-2 Omicron XBB spike pseudovirus
Experiment: as above
Procedure: as §1

Row | Binder | pseudovirus neutralization IC50
61 | B1 | > 10 µg/mL
62 | B2 | > 10 µg/mL
63 | B3 | > 10 µg/mL
64 | B4 | > 10 µg/mL
65 | B5 | > 10 µg/mL
66 | B6 | > 10 µg/mL
67 | B7 | > 10 µg/mL
68 | B8 | > 10 µg/mL
69 | B9 | > 10 µg/mL
70 | B10 | > 10 µg/mL
71 | B11 | > 10 µg/mL
72 | B12 | > 10 µg/mL

Molecular target: SARS-CoV-2 early D614G spike pseudovirus
Experiment: as above
Procedure: as §1

Row | Binder | pseudovirus neutralization IC50
73 | B1 | 0.154 µg/mL
74 | B2 | > 10 µg/mL
75 | B3 | 0.0291 µg/mL
76 | B4 | 0.719 µg/mL
77 | B5 | 0.00565 µg/mL
78 | B6 | > 10 µg/mL
79 | B7 | > 10 µg/mL
80 | B8 | 0.0664 µg/mL
81 | B9 | 0.00298 µg/mL
82 | B10 | 0.579 µg/mL
83 | B11 | 0.122 µg/mL
84 | B12 | 0.391 µg/mL

From the supplement of paper PMC9931576
